Results from publication PMC4643876, “Picomolar Inhibition of Plasmepsin V, an Essential Malaria Protease, Achieved Exploiting the Prime Region” (PLoS ONE, 2015).

The chains behind the UniProt entries cited, without tags or fusion partners.
UniProt Q8I6Z5, whole entry: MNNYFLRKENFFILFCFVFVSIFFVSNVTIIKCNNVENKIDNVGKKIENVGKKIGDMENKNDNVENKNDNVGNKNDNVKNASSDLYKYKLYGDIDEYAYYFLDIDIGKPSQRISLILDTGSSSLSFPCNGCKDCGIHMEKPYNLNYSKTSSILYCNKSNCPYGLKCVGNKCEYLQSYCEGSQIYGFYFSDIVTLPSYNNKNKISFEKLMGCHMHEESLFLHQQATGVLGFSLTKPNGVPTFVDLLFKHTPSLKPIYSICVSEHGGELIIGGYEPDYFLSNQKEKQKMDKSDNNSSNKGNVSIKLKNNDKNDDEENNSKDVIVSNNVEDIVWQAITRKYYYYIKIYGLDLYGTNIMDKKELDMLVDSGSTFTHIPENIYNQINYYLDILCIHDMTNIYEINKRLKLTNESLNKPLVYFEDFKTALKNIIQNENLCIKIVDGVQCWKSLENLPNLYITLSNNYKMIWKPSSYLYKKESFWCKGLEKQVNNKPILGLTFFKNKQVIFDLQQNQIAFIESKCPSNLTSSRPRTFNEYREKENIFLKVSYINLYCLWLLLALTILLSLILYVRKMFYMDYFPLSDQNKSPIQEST

target: Plasmepsin V (PmV) (Plasmodium falciparum, UniProt Q8I6Z5); assay: PmV inhibition, fluorimetric PExEl cleavage assay; assay type: biochemical; settings: Activity

Compared with `CC(C)C[C@H](NC(=O)[C@@H](N)Cc1ccc(O)cc1)C(=O)N[C@@H](CC(C)C)[C@H](O)CN[C@@H](C)C(=O)N[C@@H](CCC(=O)O)C(=O)N[C@@H](C)C(N)=O`, `CC(C)C[C@H](NC(=O)[C@@H](N)Cc1ccc(O)cc1)C(=O)N[C@@H](CC(C)C)[C@@H](O)CN[C@@H](C)C(=O)N[C@@H](CCC(=O)O)C(=O)N[C@@H](C)C(N)=O` is higher in pIC50: 4.72 for the first, 5.33 for the second.

Going from `CC(C)C[C@H](NC(=O)[C@@H](N)Cc1cnc[nH]1)C(=O)N[C@@H](CC(C)C)[C@H](O)CN[C@@H](C)C(=O)N[C@@H](CCC(=O)O)C(=O)N[C@@H](C)C(N)=O` to `CC(C)C[C@H](NC(=O)[C@@H](N)Cc1cnc[nH]1)C(=O)N[C@@H](CC(C)C)[C@@H](O)CN[C@@H](C)C(=O)N[C@@H](CCC(=O)O)C(=O)N[C@@H](C)C(N)=O`, the pIC50 rises from 5.13 to 5.77.

First: CC(C)C[C@H](NC(=O)[C@@H](N)CCCNC(=N)N)C(=O)N[C@@H](CC(C)C)[C@@H](O)CN[C@@H](Cc1ccc(O)cc1)C(=O)N[C@@H](CCC(=O)O)C(=O)N[C@@H](C)C(N)=O
Second: CC(C)C[C@H](NC(=O)[C@@H](N)CCCNC(=N)N)C(=O)N[C@@H](CC(C)C)[C@H](O)CN[C@@H](Cc1ccc(O)cc1)C(=O)N[C@@H](CCC(=O)O)C(N)=O
The pIC50 of the first is higher: 8.86 for the first, 7.49 for the second.

Going from `CC(C)C[C@H](NC(=O)[C@@H](N)CCCNC(=N)N)C(=O)N[C@@H](CC(C)C)C(O)CN[C@@H](C)C(=O)N[C@@H](CCC(=O)O)C(N)=O` (stereo partly drawn) to `CC(C)C[C@H](NC(=O)[C@@H](N)CCCNC(=N)N)C(=O)N[C@@H](CC(C)C)C(O)CN[C@@H](C)C(=O)N[C@@H](CCC(=O)O)C(=O)N[C@@H](C)C(=O)O` (stereo partly drawn), the pIC50 falls from 9.38 to 8.88.

Going from `CC(C)C[C@H](NC(=O)[C@@H](N)Cc1c[nH]c2ccccc12)C(=O)N[C@@H](CC(C)C)[C@@H](O)CN[C@@H](C)C(=O)N[C@@H](CCC(N)=O)C(=O)N[C@@H](C)C(N)=O` to `CC(C)C[C@H](NC(=O)[C@@H](N)Cc1c[nH]c2ccccc12)C(=O)N[C@@H](CC(C)C)[C@@H](O)CN[C@@H](C)C(=O)N[C@@H](CCC(=O)O)C(=O)N[C@@H](C)C(N)=O`, the pIC50 rises from 5.29 to 5.59.

Going from `CC(=O)N[C@@H](CCCNC(=N)N)C(=O)N[C@@H](CC(C)C)C(=O)N[C@@H](CC(C)C)C(O)CN[C@@H](C)C(=O)N[C@@H](CCC(N)=O)C(=O)N[C@@H](C)C(N)=O` (stereo partly drawn) to `CC(C)C[C@H](NC(=O)[C@@H](N)CCCCN)C(=O)N[C@@H](CC(C)C)[C@@H](O)CN[C@@H](C)C(=O)N[C@@H](CCC(=O)O)C(=O)N[C@@H](C)C(N)=O`, the pIC50 falls from 6.93 to 6.12.

First: CC(C)C[C@H](NC(=O)[C@@H](N)CCCNC(=N)N)C(=O)N[C@@H](CC(C)C)[C@@H](O)CN[C@@H](Cc1ccc(O)cc1)C(=O)N[C@@H](CCC(=O)O)C(N)=O
Second: CC(C)C[C@H](NC(=O)[C@@H](N)Cc1cnc[nH]1)C(=O)N[C@@H](CC(C)C)[C@@H](O)CN[C@@H](Cc1ccc(O)cc1)C(=O)N[C@@H](CCC(N)=O)C(=O)N[C@@H](C)C(N)=O
The pIC50 of the first is higher: 8.74 for the first, 5.09 for the second.

First: CC(C)C[C@H](NC(=O)[C@@H](N)Cc1c[nH]c2ccccc12)C(=O)N[C@@H](CC(C)C)[C@@H](O)CN[C@@H](Cc1ccc(O)cc1)C(=O)N[C@@H](CCC(N)=O)C(=O)N[C@@H](C)C(N)=O
Second: CC[C@H](C)[C@H](NC(=O)[C@@H](N)CCCNC(=N)N)C(=O)N[C@@H](CC(C)C)C(O)CN[C@@H](C)C(=O)N[C@@H](CCC(=O)O)C(=O)N[C@@H](C)C(=O)O (stereo partly drawn)
The pIC50 of the first is lower: 5.90 for the first, 8.66 for the second.

same assay, conditions: read-out: IC50 nM; Activity

First: CC(C)C[C@H](NC(=O)[C@@H](N)Cc1ccc(O)cc1)C(=O)N[C@@H](CC(C)C)[C@H](O)CN[C@@H](C)C(=O)N[C@@H](CCC(=O)O)C(=O)N[C@@H](C)C(N)=O
Second: CC(C)C[C@H](NC(=O)[C@@H](N)Cc1cnc[nH]1)C(=O)N[C@@H](CC(C)C)[C@H](O)CN[C@@H](C)C(=O)N[C@@H](CCC(=O)O)C(=O)N[C@@H](C)C(N)=O
The IC50 of the first is 2.6-fold higher: 19100 nM for the first, 7470 nM for the second. The second is the more potent here.
